# Literature values, collected in paper PMC11599114 (Viruses, 2024).
# Experiments:
# SARS-CoV-2 = test system: SARS-CoV-2; parameters: method as in ref 35216177; conditions: SARS-CoV-2, Vero
# A/Roma-ISS/02/08 H1N1 = test system: A/Roma-ISS/02/08 H1N1; parameters: method as in 2 sources; conditions: A/Roma-ISS/02/08 H1N1, MDCK
# A/Parma/24/09 H1N1 = test system: A/Parma/24/09 H1N1; parameters: method as in 2 sources; conditions: A/Parma/24/09 H1N1, MDCK
# A/Parma0/5/06 H3N2 = test system: A/Parma0/5/06 H3N2; parameters: method as in 2 sources; conditions: A/Parma0/5/06 H3N2, MDCK
# [1] = test system: influenza virus(H1N1,VR-1894); parameters: method as in ref 35216177; conditions: H1N1 VR-1894, MDKC
Substance,IC50 (SARS-CoV-2) [nM],EC50 (A/Parma0/5/06 H3N2) [nM],further results
FVPWFSKFlpRIL [DRAVPe00379],> 50000,,IC90 (SARS-CoV-2): > 50000 nM
KSETKN [DRAVPe01646],,400 ± 210,EC50 (A/Roma-ISS/02/08 H1N1): 0.5 ± 0.01 nM; EC50 (A/Parma/24/09 H1N1): 500 ± 0.46 nM
FVPWFSKFlXRILGGC [DRAVPe00390],12100,,IC50 [1]: 21100 nM
CGGFVPWFSKFlXRIL [DRAVPe00392],1020,,IC50 [1]: 6020 nM
SKHS [DRAVPe01651],,0.005 ± 2e-05,EC50 (A/Roma-ISS/02/08 H1N1): 0.003 ± 0.00061 nM
VLRP [DRAVPe01648],,0.25 ± 0.00042,EC50 (A/Parma/24/09 H1N1): 0.001 ± 5e-05 nM
FVPWFSKFlwRIL [DRAVPe00386],4070,,
FVPWFSKFlWRIL [DRAVPe00385],880,,
FVPWFSKFlkRIL [DRAVPe00384],4630,,
FVPWFSKFlXRILC [DRAVPe00389],3180,,IC50 [1]: 5550 nM
FVPWFSKFlKRIL [DRAVPe00383],880,,
SLDC [DRAVPe01650],,0.0043 ± 3e-05,EC50 (A/Parma/24/09 H1N1): 0.0046 ± 5e-05 nM
SKHSSLDC [DRAVPe01649],,0.005 ± 0.00045,EC50 (A/Roma-ISS/02/08 H1N1): 0.08 ± 0.00019 nM
FVPWFSKFlxRIL [DRAVPe00382],1000,,
CFVPWFSKFlXRIL [DRAVPe00391],760,,IC50 [1]: 2550 nM
FVPWFSKFlXRIL [DRAVPe00380],6720,,
SLDCVLRP [DRAVPe01647],,0.3 ± 0.0002,EC50 (A/Parma/24/09 H1N1): 0.0025 ± 0.00037 nM
FVPWFSKFlPRIL [DRAVPe00378],4820,,
FVPWFSKFlGRIL [DRAVPe00377],4620,,
